From paper PMC10246530 come the findings set out here.

The target of data set [1] is T1, SARS-CoV-2 nucleocapsid NTD (WT) (SARS-CoV-2 (reference genome …, UniProt P0DTC9 44-180)). The data set can be described thus: ITC; second event (SL4 part), integrated from both directions, low salt. The conditions noted are these: protein: recombinant; tags: cleaved tag; one artificial N-terminal Gly left; label: 5'-32P in EMSA; 15N-U/G for RNA-observed NMR; hairpin with 3' labile extension. On the technique in general: ITC needs no label: the signal is the heat of the interaction.

For data set [2], the target named is T1, SARS-CoV-2 nucleocapsid NTD (WT). The data set can be described thus: ITC; first event (Ext part), integrated from both directions, low salt. The settings on record: protein: recombinant; tags: cleaved tag; one artificial N-terminal Gly left; label: 5'-32P in EMSA; 15N-U/G for RNA-observed NMR; hairpin with 3' labile extension.

B1: SL4ext (SL4_extSL4) (structured_RNA)
RNA: GGUCUGUGUGGCUGUCACUCGGCUGCAUGCUUAGUGCACUCACGCAGUAUAAUUAAUAACUAAUUACUG
With B1, the values for the Kd in data set [1] and in data set [2] were 99 µM and 0.5 µM, respectively.

The term Kd denotes the constant that tells how readily two partners part at equilibrium.
